Data published in PMC6449974.

Tests used:
[1] = target: biotinylated cross-linked CA hexamer (CA A14C/E45C/W184A/M185A) (HIV-1); assay: SPR; Biacore S200; biotinylated CA K158C or biotinylated CA hexamer immobilised on streptavidin-modified CM5 chip; CypA injected at 1.1-72.8 uM; 10 mM HEPES pH 8, 0.005% Tween 20, 2 mM EDTA, 150 mM NaCl; equilibrium analysis, single experiments
[2] = target: biotinylated CA K158C (unassembled HIV-1 CA) (HIV-1); assay: as above
[3] = target: cross-linked self-assembled CA tubes (CA A14C/E45C co-assembled with CA K158C-AF488) (HIV-1); assay: TIRF fluorescence microscopy binding assay; cross-linked CA tubes held on the cover slip by an anti-p24 antibody; CypA 1-50 uM (1 uM AF647-CypA plus unlabelled CypA) flowed in; 50 mM Tris pH 8, 150 mM NaCl; equilibrium binding model on the CypA:CA molar ratio

wild type cyclophilin A (CypA) (from UniProt P62937 1-165) (enzyme)
Kd [1]: 23.7 µM | Kd [2]: 26.8 µM | Kd [3]: 14.5 µM | stoichiometry N (molar ratio of CypA:CA when saturated) [3]: 0.4
